1 substance from article PMC4618531 (BMC Microbiology, 2015) can be followed below.

For data set [1], the system named is NC(=O)C1=CN([C@@H]2O[C@H](COP(=O)(O)OP(=O)(O)OC[C@H]3O[C@@H](n4cnc5c(N)ncnc54)[C@H](OP(=O)(O)O)[C@@H]3O)[C@@H](O)[C@H]2O)C=CC1. Nature of the data set: purified protein. The settings on record: 200 μM acetoacetyl-CoA, 0.1 M sodium phosphate pH 7, 0.1 M LiCl, varied: cofactor.
The test system of data set [2] is CC(=O)CC(=O)SCCNC(=O)CCNC(=O)[C@H](O)C(C)(C)COP(=O)(O)OP(=O)(O)OC[C@H]1O[C@@H](n2cnc3c(N)ncnc32)[C@H](O)[C@@H]1OP(=O)(O)O. Nature of the data set: purified protein. The settings on record: 200 μM NADPH, 0.1 M sodium phosphate pH 7, 0.1 M LiCl, printed kcat 2.19 ± 078 sec^−1 (error misprinted).

Broadly, the Km is the substrate concentration at which the rate is half of its maximum. A word on the Vmax: it is the top rate of the reaction or transport when substrate is in excess. In general, kcat refers to the maximal rate divided by the concentration of active sites. For “RsFabG1 (Ralstonia pseudosolanacearum GMI1000)”, in data set [1], the Km turned out to be 25.75 ± 3.8 µM, the Vmax is 1.5 µmol/min/mg and the turnover number (kcat) is 0.71 s⁻¹. Further, in data set [2], the Michaelis-Menten constant (Km) worked out at 313.28 ± 14.5 µM and the maximum rate (Vmax) came to 4.7 µmol/min/mg.
